Here are results for one substance from US20150050744A1, “DIAGNOSTIC AGENT AND DIAGNOSTIC METHOD FOR IRRITABLE BOWEL SYNDROME INDUCED BY ABNORMAL PROLIFERATION OF ENTEROBACTERIA” (TRI-X BIOMEDICAL, INC., priority 2012, published 2015).

In the series the test system is enterobacteria. The series can be described thus: 13C breath test: Δ13C value in exhaled breath after oral ^13C-mannitol. It counts as in vivo, human.

Turning to ^13C-mannitol, the “Δ^13C value (‰) in exhaled breath” value is, setting by setting: (healthy subject, 300 mg ^13C-mannitol in 100 mL water, oral, from immediately after to 180 minutes after the administration, FIG. 1) −0.5 to 0.9 ‰; (subject suffering from an irritable bowel syndrome, oral aqueous ^13C-mannitol, at 30 minutes after the administration, then decreased, FIG. 2) 8 ‰; (subject suffering from an irritable bowel syndrome, oral aqueous ^13C-mannitol, within 20 minutes after the administration, FIG. 2) 5 ‰.
